Results of unrelated studies side by side (data: NIAID ChemDB).

Shared fields: target-level tests; organism: HIV-1; protein: Reverse transcriptase

Fold resistance has wild type as its base. An empty or dashed field is not shown. Two numbers with a dash give a range or band. Percent inhibition refers to the dose given; in toxicity tests it is the harm to the cells. Lines come from different laboratories, so protocols vary. ICn: concentration for n% inhibition.

SMILES | mutations | strain or isolate | read by | endpoint | dose | result
CCN1c2ccccc2N(C)C(=O)c2ccnnc21 | - | - | - | inhibition | 330 µM | 84%
CCOCn1c(Sc2ccccc2)c(CC)c(=O)[nH]c1=O | RT-Y188L | - | nucleotide incorporation | fold resistance | - | >234
CCN1c2ncc(CCOc3ccc(C(=O)Nc4cccc(CC(=O)O)c4)cc3C)cc2C(=O)N(C)c2cccnc21 | - | IIIB | nucleotide incorporation / radiometric | IC50 | - | <0.05 µM
Cc1ccc2c(c1)N(CC1CC1)C(=O)c1ccnnc1O2 | - | - | ELISA | inhibition | 33 µM | 19%
COC(=O)NCCCCNc1nc(Cc2ccccc2)c(C)c(=O)[nH]1 | RT-Y181I | - | - | fold resistance | - | >43.5
Cc1ccc(-n2nnnc2SCC(=O)Nc2ccc(-c3ccc(CC(=O)O)cc3)cc2[N+](=O)[O-])c(Cl)c1 | RT-K103 Y181C | - | PicoGreen / fluorescence | IC50 | - | <1 µM
CC(C)=CCC/C(C)=C/CC/C(C)=C/CC/C(C)=C/CC/C(C)=C/CC/C(C)=C/Cc1cc(O)ccc1O | - | - | nucleotide incorporation | IC90 | - | 11 µM
O=C(CSc1nnnn1-c1ccc(C2CC2)cc1Cl)Nc1ccc(-c2ccc(OCCN3CCCC3)cc2)cc1Cl | RT-K103 Y181C | - | PicoGreen / fluorescence | IC50 | - | <1 µM
CCCN1C(=O)c2ccnnc2N(CCC)c2ccc(C)cc21 | - | - | - | inhibition | 330 µM | 24%
Cc1cc(C)cc(S(=O)(=O)c2c(C(=O)NCCOc3ccccc3)[nH]c3ccc(Cl)c(F)c23)c1 | Y181C | - | RT activity / nucleotide incorporation | Ki | - | 0.029 µM
CC(C)(C#Cc1ccc(NC(=O)CSc2nnnn2-c2ccc(C3CC3)cc2Cl)c(Cl)c1)C(=O)NS(=O)(=O)C1CC1 | RT-K103 Y181C | - | PicoGreen / fluorescence | IC50 | - | <1 µM
Cc1cc(C)cc(S(=O)(=O)c2c(C(N)=O)[nH]c3ccc(Cl)c(F)c23)c1 | L100I | - | RT activity / nucleotide incorporation | Ki | - | 0.03 µM
Cc1ccc2c(c1)N(CCC(C)C)C(=O)c1ccnnc1O2 | - | - | ELISA | inhibition | 330 µM | 22%
CC(C)(C)c1ccc(-n2nnnc2SCC(=O)Nc2ccc(-c3ccc(OCCN4CCCCC4)cc3)cc2Cl)c(Cl)c1 | - | WT | PicoGreen / fluorescence | IC50 | - | <1 µM
CCN1c2ncc(CCOc3ccc(-c4ccc(CC(=O)O)cc4)cc3C)cc2C(=O)Nc2c(C)ccnc21 | RT-K103N Y181C | IIIB | nucleotide incorporation / radiometric | IC50 | - | <0.05 µM
Nc1nc2c(ncn2[C@H]2CC[C@@H](COP(=O)(O)OP(=O)(O)OP(=O)(O)O)O2)c(=O)[nH]1 | RT-1(IIIB) | IIIB | nucleotide incorporation / radiometric | Ki | - | 0.0067 µM
CC(C)(C)c1ccc(-n2nnnc2SCC(=O)Nc2ccc(-c3ccc(OCCN4CCOCC4)cc3)cc2Cl)c(Cl)c1 | - | WT | PicoGreen / fluorescence | IC50 | - | <1 µM
CCCN1c2ccccc2N(CC)C(=O)c2cc(Cl)nnc21 | - | - | - | inhibition | 330 µM | 74%
CCc1cc(NCc2nc3c(C)ccc(C)c3o2)c(=O)[nH]c1C | RT-Y181S | - | nucleotide incorporation | fold resistance | - | 90.8
C=Cc1cc(N(CC)CC)nc(S(C)(=O)=O)n1 | - | - | nucleotide incorporation / radiometric | Ki | - | 3.5 µM
CCN1c2ncc(CCOc3ccc(-c4cc(C(=O)O)on4)cc3)cc2C(=O)N(C)c2cccnc21 | RT-K103N Y181C | IIIB | nucleotide incorporation / radiometric | fold resistance | - | >2
CC(=O)NC(C(=O)Nc1ccc(NC(=O)CSc2nnnn2-c2ccc(C(C)(C)C)cc2Cl)c(Cl)c1)c1ccccc1 | - | WT | PicoGreen / fluorescence | IC50 | - | <1 µM
Cc1c(Cc2ccccc2)nc(SCCCCO)[nH]c1=O | RT-K103N | - | - | Ki | - | 83 µM
C=Cc1nc(SC)nc(N(C)C)c1Cl | RT-K103N | - | nucleotide incorporation / radiometric | Ki | - | >400 µM
C=CCN1C(=O)c2cc(Cl)nnc2N(C2CC2)c2ccccc21 | - | - | - | inhibition | 33 µM | 27%
C/C1=C\C=C\C2(C)C=C(CO[C@H]3O[C@H](CO)[C@H](O)[C@H](O)[C@H]3O)C(C)CC23OC([O-])C(C3=O)C(O)/C=C/C2(C)C=C(C=O)C(C)CC23OC([O-])C(C3=O)C(O)/C(C)=C/C=C/C2C=C(CO[C@H]3O[C@H](CO)[C@H](O)[C@H](O)[C@H]3O)C(C)CC23OC([O-])C(C3=O)C(O)/C=C/C2(C)C=C(C=O)C(C)CC23OC([O-])C(C3=O)C1O | - | IIIB | RT activity | inhibition | 0.032 µg/mL | 46.9%
O=C1NC(c2c[nH]c3ccc(O)cc23)=C/C1=C1\C(=O)NC2C=CC=CC12 | - | - | RT activity / ELISA | inhibition | 200 µM | 32.08%
CC(C)(C#Cc1ccc(NC(=O)CSc2nnnn2-c2ccc(C3CC3)cc2Cl)c(Cl)c1)NC(=O)CN1CCN(CCn2cccc2)CC1 | - | WT | PicoGreen / fluorescence | IC50 | - | <1 µM
CCCCCN1C(=O)c2ccnnc2Oc2ccc(C)cc21 | - | - | ELISA | inhibition | 33 µM | 19%
Cc1c(Cc2ccccc2)nc(NCCCCN)[nH]c1=O | RT-V179D | - | - | fold resistance | - | 1.01
CCN1c2ncc(CCOc3ccc(-c4cc(C)cnc4N)cc3C)cc2C(=O)N(C)c2cccnc21 | RT-K103N Y181C | IIIB | nucleotide incorporation / radiometric | IC50 | - | <0.05 µM
CCCN1C(=O)c2ccnnc2N(CCC)c2ccccc21 | - | - | - | inhibition | 33 µM | 32%
CCN1c2ncc(CCOc3ccc(-c4ccc(CC(=O)O)cc4)cc3)cc2C(=O)N(C)c2cccnc21 | RT-K103N Y181C | IIIB | nucleotide incorporation / radiometric | IC50 | - | 0.05–0.1 µM
CCCN1C(=O)c2ccnnc2N(CC)c2ccc(C)cc21 | - | - | - | inhibition | 330 µM | 67%
CCCCN1C(=O)c2ccnnc2Oc2ccc(OC)cc21 | - | - | ELISA | inhibition | 33 µM | 1%
Nc1ncnc2c1ncn2[C@H]1CC[C@@H](COP(=O)(O)OP(=O)(O)OP(=O)(O)O)O1 | RT-A62V V75I F77L F116Y Q151M | - | nucleotide incorporation / radiometric | Ki | - | 4.1 µM
CCCN1C(=O)c2cc(Cl)nnc2N(CCC)c2ccc(C)cc21 | - | - | - | inhibition | 330 µM | 6%
CCN1c2ncc(CCOc3ccc(-c4ccc(CC(=O)O)cc4O)cc3C)cc2C(=O)N(C)c2cccnc21 | RT-K103N Y181C | IIIB | nucleotide incorporation / radiometric | IC50 | - | 0.05–0.1 µM
CC(C)(C)c1ccc(-n2nnnc2SCC(=O)Nc2ccc(OCC(=O)Nc3cccc(O)c3)cc2Cl)c(Cl)c1 | RT-K103 Y181C | - | PicoGreen / fluorescence | IC50 | - | <1 µM
CCN1C(=O)c2cc(Cl)nnc2N(CC)c2ccc(C)cc21 | - | - | - | inhibition | 330 µM | 54%

For reference, 5 entries again:

| SMILES | mutations | strain or isolate | read by | endpoint | dose | result |
|---|---|---|---|---|---|---|
| CCN1c2ncc(CCOc3ccc(-c4ccc(CC(=O)O)cc4)cc3C)cc2C(=O)Nc2c(C)ccnc21 | RT-K103N Y181C | IIIB | nucleotide incorporation / radiometric | IC50 | - | <0.05 µM |
| CC(C)(C)c1ccc(-n2nnnc2SCC(=O)Nc2ccc(-c3ccc(OCCN4CCOCC4)cc3)cc2Cl)c(Cl)c1 | - | WT | PicoGreen / fluorescence | IC50 | - | <1 µM |
| C/C1=C\C=C\C2(C)C=C(CO[C@H]3O[C@H](CO)[C@H](O)[C@H](O)[C@H]3O)C(C)CC23OC([O-])C(C3=O)C(O)/C=C/C2(C)C=C(C=O)C(C)CC23OC([O-])C(C3=O)C(O)/C(C)=C/C=C/C2C=C(CO[C@H]3O[C@H](CO)[C@H](O)[C@H](O)[C@H]3O)C(C)CC23OC([O-])C(C3=O)C(O)/C=C/C2(C)C=C(C=O)C(C)CC23OC([O-])C(C3=O)C1O | - | IIIB | RT activity | inhibition | 0.032 µg/mL | 46.9% |
| CCOCn1c(Sc2ccccc2)c(CC)c(=O)[nH]c1=O | RT-Y188L | - | nucleotide incorporation | fold resistance | - | >234 |
| CCCN1C(=O)c2ccnnc2N(CC)c2ccc(C)cc21 | - | - | - | inhibition | 330 µM | 67% |